Measurements reported in patent publication US20190391160, “METHODS AND COMPOSITIONS FOR MODIFYING CYSTIC FIBROSIS TRANSMEMBRANE CONDUCTANCE REGULATOR ACTIVITY” (published 2019).

Target: human ΔF508-CFTR, P13569

B1: recombinant human non-pancreatic secreted phospholipase A2 group IIA (protein)
chain: NLVNFHRMIKLTTGKEAALSYGFYGCHCGVGGRGSPKDATDRCCVTHDCCYKRLEKRGCGTKFLSYKFSNSGSRITCAKQDSCRSQLCECDKAAATCFARNKTTYNKKYQYYSNKHCRGSTPRC
For B1, the “ΔF508CFTR Cl- current (IcAMP), two-electrode voltage clamp in X. laevis oocytes” value was “did not increase DF508CFTR Cl- current but even reduced its activity”.
